The text below walks through data of PMC5840251.

For the experiment, the target named is mouse cellular prion protein (PrP^C), full-length, on transfected HEK293 cells (mouse) (UniProt P04925). Nature of the experiment: immunostaining of cells or tissue.

Turning to “recombinant mouse α-synuclein sonicated fibrils (from UniProt O55042 1-140) (natural protein; other documents disagree on this pair)”, the percent of PrP^C-labelled cells that were α-synuclein-positive stood at 91.1%.
